Results as given in the CheMixHub ionic liquid set.
± gives the uncertainty stated by the source.

Assay: xn = mol fraction of the nth substance listed

O=S(=O)(F)[N-]S(=O)(=O)C(F)(F)F.[K+] + O=S(=O)(F)[N-]S(=O)(=O)F.[K+] gave a viscosity (342.1 K, 100 kPa, x2 = 0.55) of 1727 ± 270 mPa·s, an electrical conductivity (353.8 K, 100 kPa, x2 = 0.55) of 0.23 ± 0.02 S/m and a viscosity (390.8 K, 100 kPa, x2 = 0.55) of 86.2 ± 3 mPa·s. It also gave a viscosity (402.7 K, 100 kPa, x2 = 0.55) of 56.9 ± 1.5 mPa·s and an electrical conductivity (412.1 K, 100 kPa, x2 = 0.55) of 2.67 ± 0.27 S/m.
In the case of CCC[N+]1(C)CCCC1.O=S(=O)(F)[N-]S(=O)(=O)F + O=S(=O)(F)[N-]S(=O)(=O)F.[K+], the electrical conductivity (258 K, 101 kPa, x2 = 0.2) is reported as 0.063 ± 0.001 S/m, the electrical conductivity (273 K, 101 kPa, x2 = 0) is reported as 0.35 ± 0.01 S/m and the viscosity (273 K, 101 kPa, x2 = 0) is reported as 103 ± 8 mPa·s. It also gave an electrical conductivity (273 K, 101 kPa, x2 = 0.1) of 0.25 ± 0.01 S/m, a viscosity (273 K, 101 kPa, x2 = 0.1) of 156 ± 18 mPa·s and an electrical conductivity (278 K, 101 kPa, x2 = 0) of 0.43 ± 0.01 S/m. The viscosity (278 K, 101 kPa, x2 = 0) was 83.5 ± 4.4 mPa·s, the electrical conductivity (283 K, 101 kPa, x2 = 0) was 0.52 ± 0.01 S/m and the viscosity (283 K, 101 kPa, x2 = 0) was 68.5 ± 2.5 mPa·s. The electrical conductivity (288 K, 101 kPa, x2 = 0.25) was 0.26 ± 0.01 S/m, the viscosity (288 K, 101 kPa, x2 = 0.25) was 153 ± 17 mPa·s and the electrical conductivity (293 K, 101 kPa, x2 = 0.15) was 0.48 ± 0.01 S/m. It also gave a viscosity (293 K, 101 kPa, x2 = 0.15) of 80 ± 3.9 mPa·s, an electrical conductivity (303 K, 101 kPa, x2 = 0.05) of 0.85 ± 0.02 S/m and a viscosity (303 K, 101 kPa, x2 = 0.05) of 39.9 ± 1.2 mPa·s. For the same compound, the electrical conductivity (308 K, 101 kPa, x2 = 0.15) was 0.78 ± 0.02 S/m, the viscosity (308 K, 101 kPa, x2 = 0.15) was 46.5 ± 1.4 mPa·s and the electrical conductivity (313 K, 101 kPa, x2 = 0.25) was 0.68 ± 0.01 S/m. For the same compound, the viscosity (313 K, 101 kPa, x2 = 0.25) was 55.5 ± 1.3 mPa·s, the electrical conductivity (318 K, 101 kPa, x2 = 0) was 1.4 ± 0.03 S/m and the viscosity (318 K, 101 kPa, x2 = 0) was 22.9 ± 0.7 mPa·s. The electrical conductivity (323 K, 101 kPa, x2 = 0) was 1.56 ± 0.03 S/m, the viscosity (323 K, 101 kPa, x2 = 0) was 20.2 ± 0.6 mPa·s and the electrical conductivity (323 K, 101 kPa, x2 = 0.05) was 1.42 ± 0.03 S/m. The viscosity (323 K, 101 kPa, x2 = 0.05) was 22.5 ± 0.7 mPa·s, the electrical conductivity (333 K, 101 kPa, x2 = 0) was 1.92 ± 0.04 S/m and the viscosity (333 K, 101 kPa, x2 = 0) was 15.9 ± 0.5 mPa·s. It also gave an electrical conductivity (333 K, 101 kPa, x2 = 0.2) of 1.33 ± 0.03 S/m, a viscosity (333 K, 101 kPa, x2 = 0.2) of 25.1 ± 0.8 mPa·s and an electrical conductivity (343 K, 101 kPa, x2 = 0.25) of 1.5 ± 0.03 S/m. For the same compound, the viscosity (343 K, 101 kPa, x2 = 0.25) was 22.2 ± 0.7 mPa·s, the electrical conductivity (353 K, 101 kPa, x2 = 0.1) was 2.42 ± 0.05 S/m and the viscosity (353 K, 101 kPa, x2 = 0.1) was 12.7 ± 0.4 mPa·s. The electrical conductivity (353 K, 101 kPa, x2 = 0.25) was 1.86 ± 0.04 S/m, the viscosity (353 K, 101 kPa, x2 = 0.25) was 17.6 ± 0.5 mPa·s and the electrical conductivity (358 K, 101 kPa, x2 = 0.05) was 2.77 ± 0.06 S/m. For the same compound, the viscosity (358 K, 101 kPa, x2 = 0.05) was 10.3 ± 0.3 mPa·s, the electrical conductivity (358 K, 101 kPa, x2 = 0.15) was 2.45 ± 0.05 S/m and the viscosity (358 K, 101 kPa, x2 = 0.15) was 12.5 ± 0.4 mPa·s. The electrical conductivity (368 K, 101 kPa, x2 = 0.15) was 2.9 ± 0.06 S/m, the viscosity (368 K, 101 kPa, x2 = 0.15) was 10.4 ± 0.3 mPa·s and the electrical conductivity (378 K, 101 kPa, x2 = 0.05) was 3.77 ± 0.08 S/m. The viscosity (378 K, 101 kPa, x2 = 0.05) was 7.4 ± 0.2 mPa·s, the electrical conductivity (378 K, 101 kPa, x2 = 0.1) was 3.6 ± 0.07 S/m and the viscosity (378 K, 101 kPa, x2 = 0.1) was 8.1 ± 0.2 mPa·s. It also gave an electrical conductivity (383 K, 101 kPa, x2 = 0.25) of 3.12 ± 0.06 S/m, a viscosity (383 K, 101 kPa, x2 = 0.25) of 9.6 ± 0.3 mPa·s and an electrical conductivity (388 K, 101 kPa, x2 = 0.25) of 3.36 ± 0.07 S/m. It also gave a viscosity (388 K, 101 kPa, x2 = 0.25) of 8.8 ± 0.3 mPa·s.
